Measured values from several laboratories, pooled; numbers as filed in NIAID ChemDB.

All rows: growth or infection tests

a–b is a range or a potency band.

{"structure": "NC(=S)Nc1cccc(OCCCCCOc2ccc(Oc3ccccc3)cc2)c1", "organism": "Hepatitis C virus", "cells": "Ava5-EG(delta4AB)SEAP", "read by": "reporter gene / fluorescence", "endpoint": "EC50", "value": "0.001–1 µM"}
{"structure": "Cn1cc(C(=O)NCc2ccc(Cl)cc2)c(=O)c2cc(CN3CCOCC3)ccc21", "organism": "Varicella zoster virus", "strain": "DN zoster isolate", "cells": "HFF", "read by": "plaque count", "endpoint": "EC50", "value": "0.1 µM"}
{"structure": "O=C(O)c1cc(-n2cccc2)ccc1Cl", "organism": "HIV-1", "strain": "CMU02 X4 CLADE EA", "cells": "PBMC/5.25M7", "read by": "luciferase / cell fusion", "endpoint": "EC90", "value": "129 µM"}
{"structure": "CC(C)N=C(N)/N=C(\\N)NOCCCOc1cc(Cl)c(Cl)cc1Cl", "organism": "Mycobacterium avium complex", "strain": "1928", "endpoint": "MIC", "value": "16 µg/mL"}
{"structure": "CC[C@H]1OC(=O)[C@H](C)[C@@H](O[C@H]2C[C@@](C)(OC)[C@@H](OC(C)=O)[C@H](C)O2)[C@H](C)[C@@H](O[C@@H]2O[C@H](C)C[C@H](N(C)C)[C@H]2OC(=O)NNC)C(C)(O)C[C@@H](C)/C(=N\\OCCCC2CCCCC2)[C@H](C)[C@@H](O)[C@]1(C)O", "organism": "Mycobacterium avium complex", "strain": "20039 (clarithromycin-susceptible)", "endpoint": "MIC", "value": "3.13 µg/mL"}
{"structure": "Nc1ncnc2c1ncn2[C@@H]1C=C[C@@H](O)[C@H]1O", "organism": "Measles virus", "strain": "Chicago", "cells": "CV-1", "read by": "neutral red", "endpoint": "EC50", "value": "1 µg/mL"}
{"structure": "CC[C@H]1OC(=O)[C@H](C)[C@@H](O[C@H]2C[C@@](C)(OC)[C@@H](OC(C)=O)[C@H](C)O2)[C@H](C)[C@@H](O[C@@H]2O[C@H](C)C[C@H](N(C)C)[C@H]2O)C(C)(O)C[C@@H](C)/C(=N\\OCCN(C)c2ccccc2)[C@H](C)[C@@H](O)[C@]1(C)O", "organism": "Mycobacterium avium complex", "strain": "20092 (clarithromycin-resistant)", "endpoint": "MIC", "value": "25 µg/mL"}
{"structure": "CCOC(=O)c1ccc(OCCC2CCN(c3ccc(C)nn3)CC2)cc1", "organism": "Rhinovirus", "strain": "33342 (ICAM-1 receptor group 17)", "cells": "KB", "read by": "neutral red", "endpoint": "EC50", "value": "0.027 µM"}
{"structure": "O=C(NCc1ccc(Cl)cc1)c1c[nH]c2ccc(C#CCO)cc2c1=O", "organism": "Varicella zoster virus", "strain": "CAR", "read by": "plaque count", "endpoint": "EC50", "value": "0.2 µM"}
{"structure": "O=C(N[C@@H](C(=O)N1CCC[C@H]1c1ncc(-c2ccc(-c3ccc(-c4cnc([C@@H]5CCCN5C(=O)[C@H](NC(=O)C5CC5)c5ccccc5)s4)cc3)cc2)s1)c1ccccc1)C1CC1", "organism": "Hepatitis C virus", "strain": "genotype 1b", "mutations": "Y93N", "cells": "Huh7.5", "read by": "luciferase / reporter gene", "endpoint": "fold resistance", "value": "2547"}
{"structure": "C[C@@H](NC(=O)c1c2n(c(=O)n1-c1ccc(OCC(F)(F)F)cc1)CCN(C(=O)c1ccc(Br)c(Cl)c1)C2)c1ccc(OCC(N)=O)cc1-n1cccn1", "organism": "Hepatitis B virus", "cells": "HepG2.117", "read by": "PCR", "endpoint": "EC50", "value": ">0.5 µM"}
{"structure": "CCO/N=C1\\[C@H](C)CC(C)(O)[C@H](O[C@@H]2O[C@H](C)C[C@H](N(C)C)[C@H]2O)[C@@H](C)[C@H](OC2C[C@@](C)(OC)[C@@H](O)[C@H](C)O2)[C@@H](C)C(=O)O[C@H](CC)[C@@](C)(O)[C@H](O)[C@H]1C", "organism": "Mycobacterium avium complex", "strain": "20092 (clarithromycin-resistant)", "endpoint": "MIC", "value": ">50 µg/mL"}
{"structure": "COc1ccc(CNC(=O)c2c3n(c(=O)n2-c2ccc(OCC(F)(F)F)cc2)CCN(C(=O)c2ccc(Br)c(Cl)c2)C3)c(C)c1", "organism": "Hepatitis B virus", "cells": "HepG2.117", "read by": "PCR", "endpoint": "EC50", "value": "0.1–0.5 µM"}
{"structure": "CC(C)Nc1nc2cc(Cl)c(Cl)cc2n1[C@H]1O[C@@H](CO)[C@H](O)[C@@H]1O", "organism": "Human cytomegalovirus", "strain": "C8303", "cells": "MRC-5", "read by": "hybridisation", "endpoint": "EC50", "value": "0.09 µM"}
{"structure": "CC[C@H]1OC(=O)[C@H](C)[C@@H](O[C@H]2C[C@@](C)(OC)[C@@H](OC(C)=O)[C@H](C)O2)[C@H](C)[C@@H](O[C@@H]2O[C@H](C)C[C@H](N(C)C)[C@H]2OC(=O)NNCc2ccccc2)C(C)(O)C[C@@H](C)/C(=N\\OCCCC2CCCCC2)[C@H](C)[C@@H](O)[C@]1(C)O", "organism": "Mycobacterium avium complex", "strain": "20096 (clarithromycin-resistant)", "endpoint": "MIC", "value": "0.78 µg/mL"}
{"structure": "C[C@@H]1Cn2c(c(C(=O)NCc3ccccc3)n(-c3ccc(OC4CC4)cc3)c2=O)CN1C(=O)c1ccc(Br)c(Cl)c1", "organism": "Hepatitis B virus", "cells": "HepG2.117", "read by": "PCR", "endpoint": "EC50", "value": "0.5–5 µM"}
{"structure": "Nc1ncnc2c1ncn2[C@@H]1C[C@H](O)[C@@H](O)[C@H]1O", "organism": "Measles virus", "cells": "CV-1", "read by": "virus yield", "endpoint": "EC50", "value": "0.5 µg/mL"}
{"structure": "COc1ccc(OCCCCCOc2cccc(NC(N)=S)c2)c(Cl)c1", "organism": "Hepatitis C virus", "cells": "Ava5-EG(delta4AB)SEAP", "read by": "reporter gene / fluorescence", "endpoint": "EC50", "value": "0.001–1 µM"}
{"structure": "CC[C@H]1OC(=O)[C@H](C)[C@@H](O[C@H]2C[C@@](C)(OC)[C@@H](OC(C)=O)[C@H](C)O2)[C@H](C)[C@@H](O[C@@H]2O[C@H](C)C[C@H](N(C)C)[C@H]2O)C(C)(O)C[C@@H](C)/C(=N\\OCCSc2ccccc2)[C@H](C)[C@@H](O)[C@]1(C)O", "organism": "Mycobacterium avium complex", "strain": "20092 (clarithromycin-resistant)", "endpoint": "MIC", "value": "12.5 µg/mL"}
{"structure": "Nc1nc2c(ncn2COCCO)c(=O)[nH]1", "organism": "Herpes simplex virus 2", "strain": "V74269 (acyclovir-susceptible)", "cells": "HFF", "read by": "cytopathic effect", "endpoint": "EC50", "value": "1 µg/mL"}
{"structure": "CC[C@H]1OC(=O)[C@H](C)[C@@H](O)[C@H](C)[C@@H](O[C@@H]2O[C@H](C)C[C@H](N(C)C)[C@H]2O)C(C)(O)C[C@@H](C)/C(=N\\OCCCOc2ccccc2)[C@H](C)[C@@H](O)[C@]1(C)O", "organism": "Mycobacterium avium complex", "strain": "20092 (clarithromycin-resistant)", "endpoint": "MIC", "value": ">50 µg/mL"}
{"structure": "C=CCc1ccc(O)c(OC)c1", "organism": "Candida tropicalis", "strain": "2768", "read by": "turbidity", "endpoint": "MIC90", "value": "500 µg/mL"}
{"structure": "CC[C@H]1OC(=O)[C@H](C)[C@@H](OC(=O)Cc2ccccc2)[C@H](C)[C@@H](O[C@@H]2O[C@H](C)C[C@H](N(C)C)[C@H]2O)C(C)(O)C[C@@H](C)/C(=N\\OCCCOc2ccccc2)[C@H](C)[C@@H](O)[C@]1(C)O", "organism": "Mycobacterium avium complex", "strain": "20096 (clarithromycin-resistant)", "endpoint": "MIC", "value": "6.25 µg/mL"}
{"structure": "NC(=S)Nc1ccc2c(c1)Cc1cc(NC(=O)C3CCCCC3)ccc1-2", "organism": "Hepatitis C virus", "cells": "Ava5-EG(delta4AB)SEAP", "read by": "reporter gene / fluorescence", "endpoint": "EC50", "value": "0.001–1 µM"}
{"structure": "Nc1ncnc2c1ncn2[C@@H]1C[C@H](N)[C@@H](O)[C@H]1O", "organism": "Measles virus", "strain": "Chicago", "cells": "CV-1", "read by": "cytopathic effect", "endpoint": "EC50", "value": "<0.1 µg/mL"}
{"structure": "CC(C)(Oc1ccc(CNC(=O)c2c3n(c(=O)n2-c2ccc(OC4CC4)cc2)CCN(C(=O)c2ccc(Br)c(Cl)c2)C3)c(F)c1)C(N)=O", "organism": "Hepatitis B virus", "cells": "HepG2.117", "read by": "PCR", "endpoint": "EC50", "value": "<0.1 µM"}
{"structure": "NC(=S)Nc1cccc(OCCCCCOc2cccc(Nc3ccccc3)c2)c1", "organism": "Hepatitis C virus", "cells": "Ava5-EG(delta4AB)SEAP", "read by": "reporter gene / fluorescence", "endpoint": "EC50", "value": "0.001–1 µM"}
{"structure": "Nc1nc2c(ncn2COC(CO)CO)c(=O)[nH]1", "organism": "Human cytomegalovirus", "strain": "AD169", "cells": "MRC-5", "read by": "plaque count", "endpoint": "EC50", "value": "6.3 µM"}
{"structure": "NC(=S)Nc1cccc(OCCCCCOc2ccc(-c3ccsc3)cc2)c1", "organism": "Hepatitis C virus", "cells": "Ava5-EG(delta4AB)SEAP", "read by": "reporter gene / fluorescence", "endpoint": "EC50", "value": "0.001–1 µM"}
{"structure": "CC[C@H]1OC(=O)[C@H](C)[C@@H](OC2C[C@@](C)(OC)[C@@H](O)[C@H](C)O2)[C@H](C)[C@@H](O[C@@H]2O[C@H](C)C[C@H](N(C)C)[C@H]2O)C(C)(O)C[C@@H](C)/C(=N\\OCCCOc2ccccc2)[C@H](C)[C@@H](O)[C@]1(C)O", "organism": "Mycobacterium avium complex", "strain": "20039 (clarithromycin-susceptible)", "endpoint": "MIC", "value": "1.56 µg/mL"}
{"structure": "Nc1ncnc2c1ncn2[C@@H]1CC[C@@H](O)[C@H]1O", "organism": "Measles virus", "strain": "BIL", "cells": "CV-1", "read by": "neutral red", "endpoint": "EC50", "value": ">10 µg/mL"}

The first 4 rows once more:

NC(=S)Nc1cccc(OCCCCCOc2ccc(Oc3ccccc3)cc2)c1 ; organism: Hepatitis C virus ; cells: Ava5-EG(delta4AB)SEAP ; read by: reporter gene / fluorescence ; endpoint: EC50 ; value: 0.001–1 µM
Cn1cc(C(=O)NCc2ccc(Cl)cc2)c(=O)c2cc(CN3CCOCC3)ccc21 ; organism: Varicella zoster virus ; strain: DN zoster isolate ; cells: HFF ; read by: plaque count ; endpoint: EC50 ; value: 0.1 µM
O=C(O)c1cc(-n2cccc2)ccc1Cl ; organism: HIV-1 ; strain: CMU02 X4 CLADE EA ; cells: PBMC/5.25M7 ; read by: luciferase / cell fusion ; endpoint: EC90 ; value: 129 µM
CC(C)N=C(N)/N=C(\N)NOCCCOc1cc(Cl)c(Cl)cc1Cl ; organism: Mycobacterium avium complex ; strain: 1928 ; endpoint: MIC ; value: 16 µg/mL

ECn: concentration that inhibits the pathogen or its effect by n%. Lines come from different laboratories, so protocols vary. Fold resistance: result on the changed form divided by that on wild type. MIC50, MIC90 and the like: level of inhibition, or share of isolates inhibited.